Test results reported in PubChem BioAssay AID1794808 (University of Kansas High Throughput Screening Laboratory, 2022).
This is a selection; strong and weak results do not stand in their true shares. Activity calls are given as the source filed them. Rule as the data show it: active = inhibition above about 50%; inactive = the rest.

Each compound was assayed on Plasmodium falciparum apicoplast DNA polymerase (apPOL) (assay: Pf-apPOL inhibitors, biochemical, fluorescence (AID 1794808)). Conditions: Recombinant Pf-apPOL, molecular beacon fluorescence, 1.5 h; at 10 µM; active compounds read high.

SMILES	inhibition
O=[N+]([O-])C1([N+](=O)[O-])COCOC1	inactive: -5%
CC(CNC(=O)C(C)([N+](=O)[O-])[N+](=O)[O-])([N+](=O)[O-])[N+](=O)[O-]	inactive: -1.6%
Cc1cc([N+](=O)[O-])c(NCC(C)([N+](=O)[O-])[N+](=O)[O-])c([N+](=O)[O-])c1[N+](=O)[O-]	inactive: -9%
O=[N+]([O-])c1cc2c(c([N+](=O)[O-])c1)-c1c(cc([N+](=O)[O-])cc1[N+](=O)[O-])C2=NO	inactive: 2%
CC(CNc1c([N+](=O)[O-])cc([N+](=O)[O-])c(Cl)c1[N+](=O)[O-])([N+](=O)[O-])[N+](=O)[O-]	inactive: -2.3%
O=[N+]([O-])c1nonc1-c1n[nH]c(-c2nonc2[N+](=O)[O-])n1	inactive: 3.8%
CC(CNc1c([N+](=O)[O-])cc(Cl)cc1[N+](=O)[O-])([N+](=O)[O-])[N+](=O)[O-]	inactive: -12.6%
O=c1[nH]c2c([N+](=O)[O-])c([N+](=O)[O-])c([N+](=O)[O-])c([N+](=O)[O-])c2[nH]1	inactive: -2%
CC(CCNC(=O)NCCC(C)([N+](=O)[O-])[N+](=O)[O-])([N+](=O)[O-])[N+](=O)[O-]	inactive: 4.7%
O=[N+]([O-])c1nonc1NCNc1nonc1[N+](=O)[O-]	inactive: -6.2%
O=[N+]([O-])c1cc([N+](=O)[O-])c(/C=N/O)c([N+](=O)[O-])c1	inactive: 40.2%
O=[N+]([O-])c1cc([N+](=O)[O-])c2c(c1)[nH][n+]1c3cc([N+](=O)[O-])cc([N+](=O)[O-])c3nn21	inactive: 1.3%
O=[N+]([O-])c1ccc(-n2ncc3c([N+](=O)[O-])cc([N+](=O)[O-])cc32)c([N+](=O)[O-])c1	inactive: 4.2%
CC(CNc1c([N+](=O)[O-])cc(F)cc1[N+](=O)[O-])([N+](=O)[O-])[N+](=O)[O-]	inactive: -2.3%
O=[N+]([O-])c1nonc1COc1nonc1[N+](=O)[O-]	inactive: -0.8%
O=[N+]([O-])c1cc([N+](=O)[O-])c(C=Nc2ccccc2)c([N+](=O)[O-])c1	inactive: 0.7%
O=[N+]([O-])c1cc2c(c([N+](=O)[O-])c1[N+](=O)[O-])OCCO2	inactive: -2.6%
O=[N+]([O-])c1cc([N+](=O)[O-])c2c(c1)S(=O)(=O)c1cc([N+](=O)[O-])cc([N+](=O)[O-])c1N2	inactive: -0.6%
